# PubChem BioAssay AID1224833, University of Georgia | 2016
# Purpose: 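Human genes whose knock-down alters rotavirus replication in monkey cells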 (primary screen)
# Cell system: monkey MA104 kidney cells
# Reagents: siRNA pool against human genes, 50 nM
# Duration: 48 h knock-down before infection; read 24 h after infection
# Treatment: infection with rotavirus strain RV3 two days after transfection; infectious dose for this stage not given
# Detection: 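z-score of rotavirus antigen signal per well, from a fluorescent immunoassay, relative to non-targeting control wells on the same plate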
# Scale: z-score vs non-targeting control: higher = more rotavirus replication than with non-targeting control
# Rule for the call: In these data the active calls have z-score vs non-targeting control at about -1 or lower, or at about 1 or higher
# Meaning of the calls: active = z-score beyond 1 either way; inactive = z-score within 1 of zero
# Shown is a random part of about 12,000 reagents. About 5,600 of all reagents (46%) count as active. 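Active calls cover z-scores past 1 in both directions, so they include lowered as well as raised rotavirus replication.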 No sequences are given here.
target,z-score vs non-targeting control,outcome
AUTS2,0.178,inactive
ZMYM2,0.549,inactive
DNM1L,-0.905,inactive
NOD2,-0.742,inactive
RAP1GAP,-1.17,active
GPR45,1.43,active
CLUH,-2.54,active
FAM149B1,-0.92,inactive
PIGQ,-1.91,active
LIMCH1,-0.65,inactive
CD164L2,0.342,inactive
ERICH3,1.03,active
ATP13A5,-2.83,active
OR8S1,-0.205,inactive
PUM2,-1.11,active
CCDC85A,0.78,inactive
FERMT3,0.233,inactive
MSANTD2,0.476,inactive
RGL1,-1.95,active
NNT,-0.798,inactive
PICALM,-0.493,inactive
FAN1,0.416,inactive
GIMAP7,0.535,inactive
ATG5,-2.96,active
KIF3B,-1.41,active
HSPB6,-0.668,inactive
PAGE2B,1.71,active
LARS1,2.64,active
GNB4,0.725,inactive
FCGR1BP,-0.861,inactive
CAB39,-0.5,inactive
FITM2,1.86,active
FIGLA,0.182,inactive
AFM,-0.77,inactive
GRSF1,0.339,inactive
PSMG2,0.953,inactive
DEDD,-1.57,active
OCLN,-0.574,inactive
CTNNA1,-0.95,inactive
MYOCD,1.74,active
BCL2L15,-1.51,active
ZNF276,0.909,inactive
ZNF395,-0.303,inactive
PCDH11Y,0.627,inactive
CHMP4C,-1.67,active
ADCY1,-1.04,active
FER1L6,0.68,inactive
MCM5,-1.27,active
PRG2,-1.49,active
ACTG1,1,active

Reformatted: results already given
PCDH11Y
- z-score vs non-targeting control: 0.627
- outcome: inactive

CHMP4C
- z-score vs non-targeting control: -1.67
- outcome: active

ADCY1
- z-score vs non-targeting control: -1.04
- outcome: active

FER1L6
- z-score vs non-targeting control: 0.68
- outcome: inactive

MCM5
- z-score vs non-targeting control: -1.27
- outcome: active

PRG2
- z-score vs non-targeting control: -1.49
- outcome: active

Continued:
target,z-score vs non-targeting control,outcome
NKAPL,-1.2,active
RBMS3,-0.992,inactive
PLCB4,-1.15,active
MZF1,2.05,active
ZNF141,-2.35,active
OPA3,-0.574,inactive
VPS54,-0.332,inactive
RPS7,-2,active
RPS4X,1.9,active
COQ4,-1.27,active
ZNF358,-0.326,inactive
COPB2,1.23,active
MAL,0.0761,inactive
ZNF665,0.459,inactive
NEUROG2,-0.402,inactive
SLC1A6,-0.128,inactive
SPRY1,-0.237,inactive
MACROH2A2,-0.106,inactive
SLC45A2,0.495,inactive
PPRC1,-1.63,active
SCO1,2.19,active
SCIN,-0.43,inactive
ELSPBP1,0.59,inactive
KRTAP6-2,-0.783,inactive
EMC3,4.59,active
